Read-outs that look alike come from different tables or passages of the source.
Experiments:
[1] = molecular target: SARS-CoV-2 S (Wuhan-1, Genbank #: MN908947.3) (SARS-CoV-2, UniProt P0DTC2 14-1273); experiment: cell-based or functional assay
[2] = molecular target: T1, SARS-CoV-2 Spike (S) protein, wild type, full length (SARS-CoV-2, UniProt P0DTC2 14-1208); experiment: bead assay, flow cytometry
[3] = molecular target: T1, SARS-CoV-2 Spike (S) protein, wild …; experiment: bead assay, flow cytometry; remark: listed apart in the source
[4] = molecular target: T1, SARS-CoV-2 Spike (S) protein, wild …; experiment: bead assay, flow cytometry; remark: listed apart in the source

B1: mAb 851 (antibody, V domains shown)
VH: QITLKESGPTLVKPTQTLTLTCTFSGFSLSTNGVGMGWIRQPPGKALEWLALIYWDDDQFYSPSLKSRLTITRDTSKNQVVLTMTNMDPVDTATYYCAQAFYESFGFYSWGQGTLVTVSS
VL: NFMLTQPHSVSESPGKTVIISCTRSIGSIASNYVQWYQQRPGSAPTIVVFEDNERPSGVPDRFSGSIDRSSNSASLTISGLKTEDEADYYCQSYDGSSELVFGGGTKLTVLG
With B1 the “IC50 Wuhan-1 (pseudovirus neutralization, 293T-ACE2 cells, luciferase)” value [1] was 2.26 µg/mL.

B2: mAb 896 (antibody, V domains shown)
VH: EVQLVESGGGVVQPGGSLRLSCAASGFTFDDYAMHWVRQVPGKGLEWVSLISGDGGSTYYADSVKGRFTISRDNSKNSLYVQMNSLRTEDTALYYCVKDRGGSGWDLNHYYYGMDVWGQGTTVTVSS
VL: DIQLTQSPSFLSASVGDRVTVTCRASQGISSYLAWYQQKPGKAPKLLIYAAYTLQSGVPSRFSGSGSETEFTLTISSLQPEDFATYYCQQVKSYPLTFGGGTKVEIKR
In the case of B2, the “IC50 Wuhan-1 (pseudovirus neutralization, 293T-ACE2 cells, luciferase)” value [1] is reported as 0.156 µg/mL.

B3: mAb 923 (antibody, V domains shown)
VH: EVQLVESGGGVVRPGGSLRLSCAASGFIFDDYDMTWVRQAPGKGLEWVSGISWNGGNTGYADSVKGRFTISRDNAKNSLYLQMNSLRAEDTALYHCAVIMSPIPRYSGYDWAGGAFDIWGQGTMVTVSS
VL: SSELTQDPAVSVALGQTVRITCQGDSLRSYYASWYQQKPGQVPILVIYDKNNRPSGIPDRFSGSSSGNTASLTITGAQAEDEADYYCNSRDSSGNAVVFGGGTKLTVLG
For B3, the “IC50 Wuhan-1 (pseudovirus neutralization, 293T-ACE2 cells, luciferase)” value [1] was 0.093 µg/mL.

B4: mAb 936 (antibody, V domains shown)
VH: EVQLVESGGGLVQPGRSLTLSCAGSGFTFDDYAMHWVRQAPGKGLEWVSGISWNSGSIGYADSVKGRFTISRDNAKNSLYLQMNSLRAEDTALYYCAKDVSYDSSGYYNNAFDIWGQGTMVTVSS
VL: DIQLTQSPSFLSASVGDRVTITCRASQGISSYLAWYQQKPGKAPKLLIYAASTLQSGVPSRFSGSGSGTEFTLTISSLQPEDFATYYCQQLYSYPVTFGQGTRLEIKR
With B4 the “IC50 Wuhan-1 (pseudovirus neutralization, 293T-ACE2 cells, luciferase)” value [1] was 0.051 µg/mL.

B5: mAb 1015 (antibody, V domains shown)
VH: EVQLVESGGGLVQPGGSLRLSCAASGFTFSSYWMHWVRQAPGKGLVWVSHINSDGSSTSYADSVKGRFTISRDNAKNTLYLQMNSLRAEDTAVYYCARGLRYFDLDVWGQGTTVTVSS
VL: QSVLTQPPSVSEAPRQRVTISCSGSSSNIGNNAVNWYQQLPGKAPKLLIFYDDLLPSGVSDRFSGSKSGTSASLAISGLQSEDEADYYCAAWDDSLNGGVFGGGTKLTVLG
B5 was tested, and the “IC50 Wuhan-1 (pseudovirus neutralization, 293T-ACE2 cells, luciferase)” value [1] was 0.011 µg/mL.

B6: mAb 1036 (antibody, V domains shown)
VH: QVQLVQSGAEVKKPGSSVKVSCKASGGTLSSYTISWVRQAPGQGLEWMGRIIPILGIADYAQKFQGRVTITADKSTTTAYMDLSSLGSEDTALYYCASAPKDWSSGFDYYYGMDVWGQGTMVTVSS
VL: DIVMTQTPLSLSVTPGQPASISCKSSQSLLNSDGKTYLYWYLQKAGQPPQLLIYEVSNRFSGVPERFSGSGSGTDFTLKISRVEAEDVGVYYCMQSVQLPPYTFGQGTKLEITR
In the case of B6, the “IC50 Wuhan-1 (pseudovirus neutralization, 293T-ACE2 cells, luciferase)” value [1] is reported as 0.039 µg/mL.

B7: mAb 1037 (antibody, V domains shown)
VH: QITLKESGPTLVKPTQTLTLTCTFSGFSLSTSGVGVGWIRQPPGKALEWLALIYWDDDKRYSPSLKSRLTITKDTSKNQVVLTMTNMDPVDTATYYCAHHTITRINDYWGQGTLVTVSS
VL: QSALTQPASVSGSPGQSITISCTATSSDVGAYNYVSWYQQHPGKAPKLMIYDVSKRPSGVSNRFSGSKSGNTASLTISGLQAEDEADYYCSSYTSSSTVFGGGTKLTVLG
In the case of B7, the “IC50 Wuhan-1 (pseudovirus neutralization, 293T-ACE2 cells, luciferase)” value [1] is reported as 0.025 µg/mL.

B8: mAb 1075 (antibody, V domains shown)
VH: QVQLVQSGAEVKKPGASVKVSCKVSGYTLIELSMHWVRQAPGKGLEWMGGFDPEDGETIYAQKFQGRVTMTEDTSTDTAYMELSSLRSEDTAVYYCATEWAYYGSGSYLGYWGQGTLVTVSS
VL: EIVMTQSPATLSVSPGERATLSCRASQSVSSNLAWFQQKPGQAPRLLIYGASTRVTVIPARFSGSGSGTEFTLTISSLQSEDFAVYYCQQYNNWPRTFGQGTKVEIKR
For B8, the “IC50 Wuhan-1 (pseudovirus neutralization, 293T-ACE2 cells, luciferase)” value [1] was 0.039 µg/mL.

B9: mAb 1135 (antibody, V domains shown)
VH: EVQLVESGGGLVQPGRSLRLSCAASGLTFEDYAMHWVRQVPGKGLEWVSGISWNSGTIGYADSVKGRFIISRDNAKNSLYLQMRSLRAEDTALYYCAKDVGFGELLYYAFDIWGQGTMVTVSS
VL: QSALTQPASVSGSPGQSITISCTGTSSDVGGYNYVSWYQQHPGKAPKLMIYDVSNRPSGVSNRFSGSKSGNTASLTISGLQAEDEADYYCSSYTSSSTVVFGGGTKLTVLG
B9 was tested, and the “IC50 Wuhan-1 (pseudovirus neutralization, 293T-ACE2 cells, luciferase)” value [1] was 0.05 µg/mL.

B10: mAb 1139 (antibody, V domains shown)
VH: QVQLVQSGAEVKKPGASVKVSCKASGYTFSSYEINWVRQATGQGLEWMGRMTLNSGNTGYAQNFQGRVTMTRDTSISTAYMELSGLRSEDTAVYYCARMRSGWPTHGRPDDYWGQGTLVTVSS
VL: QSVLTQPPSASGTPGQRVTISCSGSNSNIGSYTVNWYQQLPGTAPKLLIYGNNQRPSGVPDRFSGSKSGTSASLAISGLQSEDEADYYCLAWDDSRNGLVFGGGTKLTVLG
For B10, the “IC50 Wuhan-1 (pseudovirus neutralization, 293T-ACE2 cells, luciferase)” value [1] was 0.018 µg/mL.

B11: mAb 1149 (antibody, V domains shown)
VH: QVQLVQSGAEVKKPGASVKVSCKASGYTFASYDINWVRQATGQGPEWMGWMIPNIGNTGYAQKFQGRVTMTRNTSISTAYMELSSLTSEDTAVYYCARVSRLFNDFGLRHEAPVDFWGQGTRVTVSS
VL: QSVLTQPPSVSGAPGQRVTISCTGSSSNIGAGYDVHWYQQLPGTAPKLLIYGYSSRPSGVPDRFSGSKSGTSASLAITGLQAEDEADYYCQSYDSSLSVLFGGGTKLTVLG
In the case of B11, the “IC50 Wuhan-1 (pseudovirus neutralization, 293T-ACE2 cells, luciferase)” value [1] is reported as 0.016 µg/mL.

B12: mAb 1444 (antibody, V domains shown)
VH: QVQLVQSGAEVKKPGASVKVSCKASGYTFTAYYMHWVRQAPGQGLEWMGWINPNSDDTNYAQKFQGRVTMTRDTSISTAYMELSRLRSDDTAVYYCAREEGVFTIGDRYFDLWGRGTLVSVSS
VL: QTVVTQEPSFSVSPGGTVTLTCGLSSGSVSTSYYPSWYQQTPGQAPRTLIYNTNTRSSGVPDRFSGSILGNKAALTITGAQADDESDYYCVLYMGSGIWVFGGGTKLTVLG
In the case of B12, the “IC50 Wuhan-1 (pseudovirus neutralization, 293T-ACE2 cells, luciferase)” value [1] is reported as 0.017 µg/mL.

B13: mAb 1538 (antibody, V domains shown)
VH: EVQLLESGGGLVQPGGSLRLSCAASGFTFSSYAMSWVRQAPGKGLEWVSGISDSGGSTYYADYVKGRFTISRDNSKDTLYLQMNSLRAEDTAVYYCAKDRGNEYALTHYYYYAMDVWGQGTTVTVSS
VL: DIQMTQSPSSLSASVGDRVTITCRASQSISSYLNWYQQKPGKAPKLLIYAAYSLQSGVPSRFSGGGSGTDFTLTISSLQPEDFATYFCQQSYSTPITFGQGTRLEIKR
In the case of B13, the “IC50 Wuhan-1 (pseudovirus neutralization, 293T-ACE2 cells, luciferase)” value [1] is reported as 0.114 µg/mL.

B14: antibody 297 (antibody, V domains shown)
VH: QVQLVESGGGVVQPGRSLRLSCAASGFTFSSYAMHWVRQAPGKGLEWVAVISYDGSNKYYADSVKGRFTISRDNSKNTLYLQMNSLRAEDTAVYYCARSFRGGYYYGMDVWGQGTTVTVSS
VL: DIQLTQSPSFLSASVGDRVTITCRASQGISSYLAWYQQKPGKAPKLLIYAASTLQSGVPSRFSGSGSGTEFTLTISSLQPEDFATYYCQQLNSYPLFTFGPGTKVDIK
For B14, the “bead binding signal (fold over isotype)” value [2] was 926 fold over isotype, the “bead binding signal (fold over isotype)” value [3] was 513 fold over isotype and the “bead binding signal (fold over isotype)” value [4] was 596 fold over isotype.

B15: antibody 305 (antibody, V domains shown)
VH: QVQLVESGGGVVQPGRSLRLSCAASGFTFSSYAMHWVRQAPGKGLEWVAVISYDGSNKYYADSVKGRFTISRDNSKNTLYLQMNSLRAEDTAVYYCAREQTSYDYVWGTLGAYYYYGMDVWGQGTTVTVSS
VL: SSELTQDPAVSVALGQTVRITCQGDSLRSYYASWYQQKPGQAPVLVIYGKNNRPSGIPDRFSGSSSGNTASLTITGAQAEDEADYYCNSRDSSGNHLVFGGGTKLTVL
With B15 the “bead binding signal (fold over isotype)” value [2] was 470 fold over isotype, the “bead binding signal (fold over isotype)” value [3] was 449 fold over isotype and the “bead binding signal (fold over isotype)” value [4] was 130 fold over isotype.

B16: antibody 306 (antibody, V domains shown)
VH: QVQLVESGGGVVQPGRSLRLSCAASGFTFSSYGMHWVRQAPGKGLEWVAVIWYDGSNKYYADSVKGRFTISRDNSKNTLYLQMNSLRAEDTAVYYCAKDGGYCGGDCYSDGVDYWGQGTLVTVSS
VL: not shown
B16 was tested, and the “bead binding signal (fold over isotype)” value [3] was 338 fold over isotype.

B17: antibody 307 (antibody, V domains shown)
VH: QVQLVESGGGVVQPGRSLRLSCAASGFTFSSYGMHWVRQAPGKGLEWVAVIWYDGSNKYYADSVKGRFTISRDNSKNTLYLQMNSLRAEDTAVYYCAKGYTWDYYYYGMDVWGQGTTVTVSS
VL: not shown
With B17 the “bead binding signal (fold over isotype)” value [2] was 1190 fold over isotype, the “bead binding signal (fold over isotype)” value [3] was 754 fold over isotype and the “bead binding signal (fold over isotype)” value [4] was 573 fold over isotype.

B18: antibody 308 (antibody, V domains shown)
VH: QLQLQESGPGLVKPSETLSLTCSVSGGSISSSSYHWGWIRQPPGKGLEWIGSIYYSGSTYYNPSLKSRVTISVDTSKNQFSLKLRSVTAADTAVYYCAGLRVVITFGGVIPKGGAFDIWGQGTMVTVSS
VL: QSALTQPASVSGSPGQSITISCTGTSSDVGGYNYVSWYQQHPGKAPKLMIYDVSNRPSGVSNRFSGSKSGNTASLTISGLQAEDEADYYCSSYTSSSTVVFGGGTKLTVLG
For B18, the “bead binding signal (fold over isotype)” value [2] was 758 fold over isotype, the “bead binding signal (fold over isotype)” value [3] was 346 fold over isotype and the “bead binding signal (fold over isotype)” value [4] was 398 fold over isotype.

B19: antibody 290 (antibody, V domains shown)
VH: QVHLVQSGAEVKKPGASVKVSCAASGYTFNNYGVSWVRQAPGQGLEWMGWISASNGNTKYAQNLQGRVTMTTDTSTSTAYMELRSLRSDDTAVYYCARDLVGPTAPNYYYGMDVWGQGTAVTVSS
VL: QSVLTQPPSVSGAPGQRVTISCTGSSSSIGAGYDVHWYQQLPGTAPKLLIYANSNRPSGVPDRLSGSKSGTSASLAITGLQAEDEADYYCQSYDSSLSGYVFGTGTKVTVL
B19: no binding [3].

Reference: patent publication US20220356229A1 (published 2022)
